# PubChem BioAssay AID1224833 – University of Georgia – 2016
# Test: 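Host factors restraining rotavirus as candidate antiviral genes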 (primary screen)
# Cell system: monkey MA104 kidney cells
# Reagents: siRNA pool against human genes, 50 nM
# Duration: 48 h knock-down before infection; read 24 h after infection
# Conditions: infection with rotavirus strain RV3 two days after transfection; infectious dose for this stage not given
# Measured: 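Rotavirus antigen per well by fluorescent immunoassay, normalised to non-targeting control wells on each plate and given as a standard z-score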
# Scale: z-score vs non-targeting control: higher = more rotavirus replication than with non-targeting control
# Call rule: In these data the active calls have z-score vs non-targeting control at about -1 or lower, or at about 1 or higher
# Meaning of the calls: active = z-score beyond 1 either way; inactive = z-score within 1 of zero
# The whole screen tested about 12,000 reagents; shown is a random part of them. Of all reagents, about 5,600 (46%) got an active call. 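Active calls cover z-scores past 1 in both directions, so they include lowered as well as raised rotavirus replication.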
gene knocked down,z-score vs non-targeting control,call
HYOU1,-1.05,active
BLCAP,-0.505,inactive
RLN1,1.18,active
CORO2A,-0.279,inactive
CFP,0.329,inactive
CGAS,-0.167,inactive
OR4N4,-1.82,active
LAMTOR3,2.52,active
BAZ1A,-0.138,inactive
HDGFL1,-0.98,inactive
C10orf53,-2.28,active
FAM89A,0.61,inactive
NDST1,0.542,inactive
SLC2A11,-0.6,inactive
MTCL2,0.515,inactive
CNR1,-0.921,inactive
TGOLN2,-1.88,active
CDS2,-1.45,active
MPZL2,0.984,inactive
REP15,-1.38,active
FKBP4,-1.37,active
GGCX,0.764,inactive
GIMAP8,-1.55,active
GMFB,-0.589,inactive
VIRMA,1.6,active
CCL16,-2.73,active
NDUFS7,-1.9,active
TTLL1,2.91,active
DISP1,0.597,inactive
CHMP4B,-0.773,inactive
CCM2L,-0.527,inactive
ABLIM3,-1.51,active
TIMM10B,-2.23,active
TBC1D22B,0.0038,inactive
ALDH1A2,-1.32,active
SNX17,-0.516,inactive
PREB,-0.7,inactive
FOXP3,0.604,inactive
KHDRBS2,-0.03,inactive
KRT37,0.624,inactive
CSTF1,-1.41,active
SERBP1,-1,active
MYOF,-1.75,active
IFI35,-0.408,inactive
BTBD17,-1.75,active
